We go through one molecule from article PMC12377726, “Structural insights into VRC01-class bnAb precursors with diverse light chains elicited in the IAVI G001 human vaccine trial” (Proceedings of the National Academy of Sciences of the …, 2025).

What is called Kd is the constant that tells how readily two partners part at equilibrium. A low value points to higher affinity.

The target in the assay is T1, eOD-GT8 (engineered outer domain germline-targeting version 8), monomer (HIV-1 gp120 engineered outer domain, …).
T1 chain: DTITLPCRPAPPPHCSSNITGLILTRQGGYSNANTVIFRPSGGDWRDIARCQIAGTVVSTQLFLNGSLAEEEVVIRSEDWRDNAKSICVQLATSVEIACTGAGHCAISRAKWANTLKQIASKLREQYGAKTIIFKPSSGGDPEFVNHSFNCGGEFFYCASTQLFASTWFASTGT
In words: SPR. The conditions noted are these: both partners purified.

B1: G001_LD_V05_VRC01c_14 (antibody, V domains shown)
VH: not shown
VL: DIQMTQSPSSLSASVGDRVTITCQASQDINNYLNWYQQKPGKAPKLLIYDASNLETGVPSRFSGSGSGTDFTFTISSLQPEDIATYYCQQYEFFGGGTKVEIK
In the case of B1, the Kd is 0.37 nM.
